Measured values from several laboratories, pooled; numbers as filed in NIAID ChemDB.

All rows: growth or infection tests; organism: HIV-1

Blank or dashed fields: not listed here. ECn is the concentration giving n% inhibition of infection, replication or growth. Neighbouring rows are from separate reports.

structure	read by	mutations	cell line	strain or isolate	read-out	value
CC(=O)N1CCn2c(nc(C(=O)NCc3ccc(F)cc3)c(O)c2=O)C1(C)C	p24		MT-4		EC50	<1 µM
O=C(Cc1ccccn1)NNC(=S)Nc1cccc(C(F)(F)F)c1	cytopathic effect / MTT		MT-4	IIIB	EC50	>100 µM
C[C@@H]1CCO[C@H]2Cn3cc(C(=O)NCc4ccc(F)cc4F)c(=O)c(O)c3C(=O)N12	luciferase / luminescence	I60M	TZM-bl		EC50	0.0024 µM
Cc1c(OCC2CCC2)c2cc(F)ccc2[nH]c1=O	β-galactosidase	RT-Y181C	HeLa + HeLa-MAGI	NNRTI-resistant (RT Y181C)	EC50	>2 µM
N#Cc1cc(Cl)cc(Oc2c(Br)ccc(CC(=O)Nc3ccc(S(N)(=O)=O)cc3Cl)c2F)c1		L100I	MT-4		EC50	0.0003 µM
CCC(C)C#COc1c(C(C)C)c(=O)[nH]c2ccc(F)cc12		RT-103N V108I	MT-4	RT-K103N V108I	EC50	2 µM
COc1c(Cl)cc(C(=CCCCCN[C@H]2CC[C@]3(C)C4CC[C@@]5(C)C(CC[C@@H]5C(C)CCCC(C)C)C4CC[C@H]3C2)c2cc(Cl)c(OC)c(C(=O)O)c2)cc1C(=O)O	cytopathic effect / MTT		CEM + CEM-SS	IIIB	EC50	>150 µM
Cn1c2ccccc2c(=O)c2c(O)cccc21	p24 / ELISA		PBMC	IIIB	EC50	1.4 µg/mL
CN1CC(=O)C(=O)C=C1Cn1cnc([N+](=O)[O-])c1Nc1ccc(Br)cc1	MTT		MT-4	IIIB	EC50	>6.8 µM
COc1ccnc2[nH]cc(C(=O)C(=O)N3C4CCCC3CN(C(=O)c3ccccc3)C4)c12	luciferase		TZM-bl	SF162	EC99	120 µM
CN1CC(=O)C(=O)C=C1Cn1cnc([N+](=O)[O-])c1Sc1ccc(Cl)cc1	MTT			IIIB	EC50	3.65 µM
Clc1ccc(Nc2nnc(Cc3ccccn3)s2)cc1Cl	cytopathic effect / MTT		MT-4	IIIB	EC50	>100 µM
[O-][n+]1onc2ncnc(N3CC[N+]4(CC3)CC[N+]3(CCN(c5ncnc6no[n+]([O-])c56)CC3)CC4)c21	cytopathic effect / XTT	RT-K103N Y181C	MT-2	A17	EC50	4.7 µM
COc1c(Cl)cc(C(=CCCCCN[C@@H]2CC[C@]3(C)C4CC[C@@]5(C)C(CC[C@@H]5C(C)CCCC(C)C)C4CC[C@H]3C2)c2cc(Cl)c(OC)c(C(=O)O)c2)cc1C(=O)O	cytopathic effect / MTT		CEM + CEM-SS	RF	EC50	>200 µM
COc1cccc2[nH]c3ccccc3c(=O)c12	p24 / ELISA		OM-10.1	IIIB	EC50	>17 µg/mL
Cc1ccc(Cl)c(Nc2nnc(Cc3ccccn3)s2)c1	cytopathic effect / MTT		MT-4	IIIB	EC50	>100 µM
O=C1Nc2ccc(Cl)cc2[C@@](/C=C/C2CC2)(C(F)(F)F)N1		RT-K103N V108I			EC90	~0.095 µM
CN(C)CC1NCCn2c1nc(C(=O)NCc1ccc(F)cc1)c(O)c2=O	p24		MT-4		EC50	<50 µM
O=C1Nc2ccc(F)c(F)c2[C@@](C#CC2CC2)(C(F)(F)F)N1		RT-Y181C			EC90	<0.012 µM
CC1(C)c2nc(C(=O)NCc3ccc(F)cc3)c(O)c(=O)n2CCN1Cc1ccccc1	p24		MT-4		EC50	<1 µM
CN1CC(=O)C(=O)C=C1Cn1cnc([N+](=O)[O-])c1Nc1ccc(C#N)cc1	MTT		MT-4	IIIB	EC50	>250 µM
CN[C@@H]1[C@H](O[C@@H]2OC[C@@H](O)[C@H](O)[C@H]2O)[C@@H](O)[C@H](O[C@H]2c3cc(C)c(C(=O)N[C@H](C)C(=O)O)c(O)c3-c3c(cc4c(c3O)C(=O)c3cc(OC)cc(O)c3C4=O)[C@@H]2O)O[C@@H]1C	syncytia		CEM	Mutant AH_1/#43	EC50	4.5 µM
Brc1cccc(Nc2nnc(Cc3ccccn3)s2)c1	cytopathic effect / MTT		MT-4	IIIB	EC50	>74 µM
CCc1c(OC#CC2CC2)c2cc(F)ccc2[nH]c1=O			MT-4		EC50	0.03 µM
O=C(O)CCC(CCC(=O)O)(CCC(=O)O)NC(=O)CCC(CCC(=O)NC(CCC(=O)O)(CCC(=O)O)CCC(=O)O)(CCC(=O)NC(CCC(=O)O)(CCC(=O)O)CCC(=O)O)NC(=O)CCCOC(=O)C1(C(=O)OCCCC(=O)NC(CCC(=O)NC(CCC(=O)O)(CCC(=O)O)CCC(=O)O)(CCC(=O)NC(CCC(=O)O)(CCC(=O)O)CCC(=O)O)CCC(=O)NC(CCC(=O)O)(CCC(=O)O)CCC(=O)O)C2c3cc4c5c6c3-c3c(cc7c8c3C6C3c6c-5c(cc5ccc9cc(c-8c3c9c65)C7)C4)C21	cytopathic effect		PBMC	xxBRU	EC50	0.19 µM
COC(=O)N1CCn2c(nc(C(=O)NCc3ccc(F)cc3)c(O)c2=O)C1CN(C)C	p24		MT-4		EC50	<50 µM
CC(C)Cc1c(OC2CCCC2)c2cc(Cl)ccc2[nH]c1=O		RT-Y181C	MT-4	Nevirapine-resistant (RT Y181C)	EC50	0.93 µM
CO[C@@H]1[C@@H](OC(=O)c2ccc(C)[nH]2)[C@@H](O)C(Oc2ccc3c(O)c(NC(=O)c4c[nH]c(C(=O)Nc5c(O)c6ccc(OC7OC(C)(C)[C@H](OC)[C@@H](OC(=O)c8ccc(C)[nH]8)[C@H]7O)c(C)c6oc5=O)c4C)c(=O)oc3c2C)OC1(C)C	flow cytometry / single cycle	(delta)Env	SupT1	LAI	EC50	1.3 µM
CC(=O)N1CCn2c(nc(C(=O)NCc3ccc(F)cc3)c(O)c2=O)C1CO	p24		MT-4		EC50	<50 µM
CC(C)=CCC[C@]1(C)C=Cc2c(ccc3c2C(=O)C(O)=C(C2=C(C4=C(O)C(=O)c5c(ccc6c5C=C[C@@](C)(CCC=C(C)C)O6)C4=O)C(=O)c4c(ccc5c4C=C[C@@](C)(CCC=C(C)C)O5)C2=O)C3=O)O1	RT activity		MT-4	RF	EC50	0.04 µM
CCNC(=O)N1CCn2c(nc(C(=O)NCc3ccc(F)cc3)c(O)c2=O)C1(C)C	p24		MT-4		EC50	<1 µM
CCCc1c(OCC2CCC2)c2cc(F)ccc2[nH]c1=O		RT-Y181C	MT-4	Nevirapine-resistant (RT Y181C)	EC50	0.117 µM
COc1cc(OC)c2c(=O)c3ccccc3n(C)c2c1	p24 / ELISA		OM-10.1	IIIB	EC50	3.2 µg/mL
COc1ccnc2[nH]cc(C(=O)C(=O)N3CCN(C(=O)c4ccccc4)C[C@H]3C)c12	luciferase		TZM-bl	QH0692	EC50	0.02 µM
Cc1ccc(NC(=S)NNC(=O)Cc2ccccn2)cc1Cl	cytopathic effect / MTT		MT-4	IIIB	EC50	>100 µM
CCCc1c(OC2CCCCC2)c2cc(Cl)ccc2[nH]c1=O	β-galactosidase	RT-K103N	HeLa + HeLa-MAGI	NNRTI-resistant (RT K103N)	EC50	>2 µM
CCCc1c(OCC2CC2)c2cc(Cl)ccc2[nH]c1=O		RT-Y181C	MT-4	Nevirapine-resistant (RT Y181C)	EC50	3.01 µM
S=c1[nH]nc(Cc2ccccn2)n1-c1cccc(Cl)c1	cytopathic effect / MTT		MT-4	IIIB	EC50	>100 µM
COc1c(Cl)cc(C(=CCCNC(=O)C[C@H]2CC[C@]3(C)C4CC[C@@]5(C)C(CC[C@@H]5CC(=O)NCCC=C(c5cc(Cl)c(OC)c(C(=O)O)c5)c5cc(Cl)c(OC)c(C(=O)O)c5)C4CC[C@H]3C2)c2cc(Cl)c(OC)c(C(=O)O)c2)cc1C(=O)O	cytopathic effect / MTT		CEM + CEM-SS	RF	EC50	38 µM
O=S(=O)(c1cccc2cnccc12)N1CCNCC1	cytopathic effect / MTT		CEM	IIIB	EC50	>10.2 µg/mL
COc1c(Cl)cc(C(=CCNC(=O)C[C@H]2CC[C@]3(C)C4CC[C@@]5(C)C(CC[C@@H]5CC(=O)NCC=C(c5cc(Cl)c(OC)c(C(=O)O)c5)c5cc(Cl)c(OC)c(C(=O)O)c5)C4CC[C@H]3C2)c2cc(Cl)c(OC)c(C(=O)O)c2)cc1C(=O)O	cytopathic effect / MTT		MT-4	RF	EC50	35 µM
CCCc1c(OC2CCCC2)c2cc(Br)ccc2[nH]c1=O		RT-Y181C	MT-4	Nevirapine-resistant (RT Y181C)	EC50	1.25 µM